Compound potency records, mixed from different reports. Data source: NIAID ChemDB in PubChem.

All rows: whole-cell or culture tests; organism: HIV-2

Neighbouring rows are from separate reports. Blank or dashed fields: not listed here. ECn is the concentration giving n% inhibition of infection, replication or growth.

smiles,cells,method,strain,endpoint,mutations,result
O=C(N/N=C/c1cc(Br)ccc1O)c1csc(N2N=C(c3ccccc3)CC2c2ccc(Cl)cc2)n1,MT-4,MTT / absorbance,ROD,EC50,-,>125 µM
Cc1cn([C@H]2C[C@H](N=[N+]=[N-])[C@@H](CO[Si](C)(C)C(C)(C)C)O2)c(=O)n(CC(=O)O)c1=O,MT-4,cytopathic effect / trypan blue,ROD,EC50,-,>50 µM
CCc1c(C(=O)c2cccc3ccccc23)n(CC(=O)OC)c(=O)[nH]c1=O,MT-4,cytopathic effect / MTT,ROD,EC50,-,>168 µM
COc1ccc(CCNc2nc(NC(=S)Nc3ccccc3Cl)nc(Oc3cc(=O)oc4ccccc34)n2)cc1OC,MT-4,MTT,ROD,EC50,-,>13.75 µg/mL
Cc1cn([C@@H]2O[C@H](COCc3ccccc3)C3(OS(=O)(=O)C=C3N)[C@H]2O[Si](C)(C)C(C)(C)C)c(=O)[nH]c1=O,CEM,syncytia,ROD,EC50,-,>6 µM
Cc1cn([C@@H]2O[C@H](CO[Si](C)(C)C(C)(C)C)[C@@H](O[Si](C)(C)C(C)(C)C)[C@H]2O)c(=O)n(CC(=O)ON)c1=O,CEM,syncytia,ROD,EC50,-,>2 µM
Cc1cn([C@@H]2O[C@H](CO[Si](c3ccccc3)(c3ccccc3)C(C)(C)C)C3(OS(=O)(=O)C=C3N)[C@H]2O[Si](C)(C)C(C)(C)C)c(=O)n(C)c1=O,CEM,syncytia,ROD,EC50,-,>60 µM
O=C(N/N=C/c1ccc(O)cc1)c1csc(N2N=C(c3ccccc3)CC2c2ccc(Cl)cc2)n1,MT-4,MTT / absorbance,ROD,EC50,-,>17.75 µM
CCc1c(C(=O)c2cccc3ccccc23)n(CC=C(C)C)c(=O)[nH]c1=O,MT-4,cytopathic effect / MTT,ROD,EC50,-,>36.33 µM
O=C(N/N=C/c1cccc([N+](=O)[O-])c1)c1csc(N2N=C(c3ccccc3)CC2c2ccc(Cl)cc2)n1,MT-4,MTT / absorbance,ROD,EC50,-,>0.47 µM
Nc1nc(=O)n([C@H]2C[C@H](O)[C@@H](CO)O2)cc1COCC(F)(F)F,CEM,p24,-,EC50,-,>100 µg/mL
Nc1ncnc2c1ncn2[C@H]1CC[C@@H](CO)O1,U-937,virus yield,LAV-2,EC95,-,1 µM
CCc1c(C(=O)c2cccc3ccccc23)n(COCCOC)c(=O)[nH]c1=O,MT-4,cytopathic effect / MTT,ROD,EC50,-,>164 µM
C#C[C@]1(CO)O[C@@H](n2cnc3c(N)nc(F)nc32)CC1O,MAGIC-5A,β-galactosidase / absorbance,ROD9,EC50,K65R Q151M,0.0002 µM
CCc1cn([C@@H]2O[C@H](CO[Si](C)(C)C(C)(C)C)[C@@H](O)[C@H]2O[Si](C)(C)C(C)(C)C)c(=O)n(CC(=O)O)c1=O,CEM,syncytia,ROD,EC50,-,>10 µM
O=c1[nH]cnc2c1ncn2[C@H]1CC[C@@H](CO)O1,MT-4,cytopathic effect / MTT,ROD,EC50,-,2.71 µM
CC(C)=CCN1Cc2cccc3[nH]c(=S)n(c23)C[C@@H]1C,PBMC,RT activity,ROD,EC50,-,>6.25 µM
CCCCCCCCCCCCCCCOP(=O)(OCc1ccc(OC(=O)CCCC)cc1)OP(=O)(O)OP(=O)(O)OC[C@@H]1C=C[C@H](n2cc(C)c(=O)[nH]c2=O)O1,-,-,-,EC50,-,0.14 µM
Cc1cccc(C)c1OCC(=O)N[C@@H](Cc1ccccc1)[C@@H](O)C[C@H](Cc1ccccc1)NC(=O)[C@H](C(C)C)N1CCCNC1=O,MT-2,MTT,ROD,EC50,-,0.018 µM
Cc1cn([C@@H]2O[C@H](CO[Si](C)(C)C(C)(C)C(C)C)C3(OS(=O)(=O)C=C3N)[C@H]2O[Si](C)(C)C(C)(C)C)c(=O)n(C)c1=O,MT-4,syncytia,ROD,EC50,-,>6 µM
CC(C)Nc1cccnc1N1CCN(C(=O)c2cc3cc(NS(C)(=O)=O)ccc3[nH]2)CC1,PBMC,RT activity,ROD,EC90,-,>62.5 µM
CC(C)CN(C[C@@H](O)[C@H](Cc1cc(F)cc(F)c1)NC(=O)O[C@H]1CCO[C@H]2OCC[C@H]21)S(=O)(=O)c1ccc2nc(NC(C)C)sc2c1,MT-2,MTT,ROD,EC50,-,0.00047 µM
CC(C)(C)[Si](C)(C)OC[C@H]1O[C@@H](n2ccc(=O)n(CC(=O)O)c2=O)[C@H](O)[C@@H]1O[Si](C)(C)C(C)(C)C,MT-4,cytopathic effect / trypan blue,ROD,EC50,-,>10 µM
Cc1ccc(S(=O)(=O)OC[C@H]2O[C@@H](n3cc(C)c(=O)n(C)c3=O)[C@H](O[Si](C)(C)C(C)(C)C)C23OS(=O)(=O)C=C3N)cc1,MT-4,syncytia,ROD,EC50,-,>30 µM
O=c1[nH]c(=O)n([C@H]2C[C@H](O)[C@@H](CO)O2)cc1C(OCC(F)(F)F)OCC(F)(F)F,CEM,p24,-,EC50,-,>100 µg/mL
Cc1cn([C@@H]2O[C@H](CO[Si](c3ccccc3)(c3ccccc3)C(C)(C)C)C3(OS(=O)(=O)C=C3N)[C@H]2O[Si](c2ccccc2)(c2ccccc2)C(C)(C)C)c(=O)[nH]c1=O,MT-4,syncytia,ROD,EC50,-,>150 µM
Cc1c(Sc2ccccc2)n(COCCO)c(=O)[nH]c1=O,CEM + CEM-SS,cytopathic effect / XTT,ROD,EC50,-,>325 µM
Cc1cn([C@@H]2O[C@H](COCc3ccccc3)C3(OS(=O)(=O)C=C3NC(=O)c3ccccc3)[C@H]2OC(=O)c2ccccc2)c(=O)[nH]c1=O,MT-4,syncytia,ROD,EC50,-,>40 µM
Cc1cn([C@@H]2O[C@H](CO[Si](C)(C)C(C)(C)C)[C@@H](O)[C@H]2O[Si](C)(C)C(C)(C)C)c(=O)n(CC(=O)ON)c1=O,CEM,syncytia,ROD,EC50,-,>2 µM
C=CCn1c(C(=O)c2cccc3ccccc23)c(CC)c(=O)[nH]c1=O,MT-4,cytopathic effect / MTT,ROD,EC50,-,>39.22 µM
CN=C1CN=C(c2ccc[nH]2)c2cc(Cl)ccc2N1,CEM,antigen,UC-1,EC50,-,0.1 µM
CCc1c(C(=O)c2cccc3ccccc23)n(Cc2ccccc2)c(=O)[nH]c1=O,MT-4,cytopathic effect / MTT,ROD,EC50,-,>33.67 µM
COc1ccccc1/C=N/NC(=O)c1csc(N2N=C(c3ccccc3)CC2c2ccc(Cl)cc2)n1,MT-4,MTT / absorbance,ROD,EC50,-,>10.32 µM
CCc1c(C(=O)c2cccc3ccccc23)n(C/C=C/c2ccccc2)c(=O)[nH]c1=O,MT-4,cytopathic effect / MTT,ROD,EC50,-,>28.71 µM
CC(C)(C)[Si](C)(C)OC[C@@H]1CC[C@H](n2cnc3c(=O)n(CC(=O)OCc4ccccc4)cnc32)O1,MT-4,cytopathic effect / trypan blue,ROD,EC50,-,>10 µM
CCc1c(Sc2ccccn2)n(COCc2ccccc2)c(=O)[nH]c1=O,CEM + CEM-SS,cytopathic effect / XTT,ROD,EC50,-,>2.7 µM
COc1cc(/C=N/NC(=O)c2csc(N3N=C(c4ccccc4)CC3c3ccc(Cl)cc3)n2)ccc1O,MT-4,MTT / absorbance,ROD,EC50,-,>60.1 µM
COc1ccc(CCNc2nc(NC(=O)Nc3ccc(C)cc3)nc(Oc3cc(=O)oc4ccccc34)n2)cc1OC,MT-4,MTT,ROD,EC50,-,>74.98 µg/mL
[N-]=[N+]=N[C@H]1C[C@H](n2cc(COCC(F)(F)F)c(=O)[nH]c2=O)O[C@@H]1CO,CEM,p24,-,EC50,-,3.1 µg/mL
CCOc1ccc(NC(=O)Nc2nc(NCCc3ccc(OC)c(OC)c3)nc(Oc3cc(=O)oc4ccccc34)n2)cc1,MT-4,MTT,ROD,EC50,-,>30.15 µg/mL
O=C(N/N=C/c1cccc(Cl)c1)c1csc(N2N=C(c3ccccc3)CC2c2ccc(Cl)cc2)n1,MT-4,MTT / absorbance,ROD,EC50,-,>64.5 µM
COC(=O)Cn1c(=O)c(C)cn([C@H]2C[C@H](N=[N+]=[N-])[C@@H](CO[Si](C)(C)C(C)(C)C)O2)c1=O,MT-4,cytopathic effect / trypan blue,ROD,EC50,-,>10 µM
O=C(N/N=C/c1ccc(OCc2ccccc2)cc1)c1csc(N2N=C(c3ccccc3)CC2c2ccc(Cl)cc2)n1,MT-4,MTT / absorbance,ROD,EC50,-,>125 µM
CC(C)(C)[Si](C)(C)OC[C@H]1O[C@@H](n2cnc3c(=O)n(CC(=O)O)cnc32)[C@H](O[Si](C)(C)C(C)(C)C)[C@@H]1O,MT-4,cytopathic effect / trypan blue,ROD,EC50,-,24 µM

For reference, 6 entries again:

Cc1cn([C@@H]2O[C@H](CO[Si](C)(C)C(C)(C)C)[C@@H](O)[C@H]2O[Si](C)(C)C(C)(C)C)c(=O)n(CC(=O)ON)c1=O ; cells: CEM ; method: syncytia ; strain: ROD ; endpoint: EC50 ; result: >2 µM
CCc1c(C(=O)c2cccc3ccccc23)n(CC=C(C)C)c(=O)[nH]c1=O ; cells: MT-4 ; method: cytopathic effect / MTT ; strain: ROD ; endpoint: EC50 ; result: >36.33 µM
CCc1c(C(=O)c2cccc3ccccc23)n(COCCOC)c(=O)[nH]c1=O ; cells: MT-4 ; method: cytopathic effect / MTT ; strain: ROD ; endpoint: EC50 ; result: >164 µM
[N-]=[N+]=N[C@H]1C[C@H](n2cc(COCC(F)(F)F)c(=O)[nH]c2=O)O[C@@H]1CO ; cells: CEM ; method: p24 ; endpoint: EC50 ; result: 3.1 µg/mL
CCc1c(Sc2ccccn2)n(COCc2ccccc2)c(=O)[nH]c1=O ; cells: CEM + CEM-SS ; method: cytopathic effect / XTT ; strain: ROD ; endpoint: EC50 ; result: >2.7 µM
Cc1cn([C@@H]2O[C@H](COCc3ccccc3)C3(OS(=O)(=O)C=C3N)[C@H]2O[Si](C)(C)C(C)(C)C)c(=O)[nH]c1=O ; cells: CEM ; method: syncytia ; strain: ROD ; endpoint: EC50 ; result: >6 µM